In publication PMC10778704 (International Journal of Molecular Sciences, 2023):

Test: general procedure: Fmoc solid-phase peptide synthesis; TentaGel S RAM resin, 0.23 mmol/g; DIC / Oxyma Pure
Details: whole synthesis, UPLC-MS, scale of the general procedure 0.1 mmol
With “PEPTIDE1{[ac].D.K.K.N.H.E.D.E.D.[am]}$PEPTIDE1,PEPTIDE1,4:R3-8:R3$$$V2.0” the “final LC-MS purity” value was 100%. With “PEPTIDE1{[ac].D.K.F.N.H.E.A.E.D.[am]}$$$$V2.0” the “final LC-MS purity” value was 99%. With “PEPTIDE1{[ac].H.E.A.E.D.L.F.Y.Q.[am]}$$$$V2.0” the “final LC-MS purity” value was 100%. For “PEPTIDE1{[ac].H.E.[S5-E].E.D.L.[S5-half].Y.Q.[am]}$PEPTIDE1,PEPTIDE1,4:R3-8:R3$$$V2.0”, the “final LC-MS purity” value was 96%. In the case of “PEPTIDE1{[ac].D.K.[S5-Z].N.H.E.[S5-half].E.D.[am]}$PEPTIDE1,PEPTIDE1,4:R3-8:R3$$$V2.0”, the “final LC-MS purity” value was 100%. For “Ac-NH-Asp-Lys-[S5-Asn-His-Glu-S5]-Glu-Asp-CO-NH2”, the “final LC-MS purity” value was 100%. With “PEPTIDE1{[ac].H.E.K.E.D.L.D.Y.Q.[am]}$PEPTIDE1,PEPTIDE1,4:R3-8:R3$$$V2.0” the “final LC-MS purity” value was 100%.

Same assay, conditions: whole synthesis, UPLC-MS, scale of the general procedure 0.1 mmol, bicyclic
With “Ac-NH-Asp-Lys-[Lys-Asn-His-Glu-Asp]-Glu-Asp-[Lys-Phe-Tyr-Gln-Asp]-CO-NH2” the “final LC-MS purity” value was 95%.

Same assay, conditions: whole synthesis, UPLC-MS, scale of the general procedure 0.1 mmol, cyclic
In the case of “Ac-NH-His-Glu-[Dap-Glu-Asp-Leu-Dap]-Tyr-Gln-CO-NH2”, the “final LC-MS purity” value was 98%. In the case of “Ac-NH-Asp-Lys-[Dap-Asn-His-Glu-Dap]-Glu-Asp-CO-NH2”, the “final LC-MS purity” value was 100%. With “Ac-NH-His-Glu-[dPra-Glu-Asp-Leu-Lys]-Tyr-Gln-CO-NH2” the “final LC-MS purity” value was 100%. In the case of “Ac-NH-Asp-Lys-[dPra-Asn-His-Glu-Lys]-Glu-Asp-CO-NH2”, the “final LC-MS purity” value was 98%. With “Ac-NH-His-Glu-[Lys-Glu-Asp-Leu-dPra]-Tyr-Gln-CO-NH2” the “final LC-MS purity” value was 95%. With “Ac-NH-Asp-Lys-[Lys-Asn-His-Glu-dPra]-Glu-Asp-CO-NH2” the “final LC-MS purity” value was 100%.

Same assay, conditions: whole synthesis, UPLC-MS, scale of the general procedure 0.1 mmol, side-chain lactam ring
For “Ac-NH-Pro-His-Glu-[Lys-Glu-Asp-Leu-Asp]-Tyr-Gln-CO-NH2”, the “final LC-MS purity” value was 100%. With “Ac-NH-Asp-Lys-[Asp-Asn-His-Glu-Lys]-Glu-Asp-CO-NH2” the “final LC-MS purity” value was 95%. With “Ac-NH-Asp-Lys-[Lys-Asn-His-Glu-Glu]-Glu-Asp-CO-NH2” the “final LC-MS purity” value was 100%. With “Ac-NH-Pro-Asp-Lys-[Lys-Asn-His-Glu-Asp]-Glu-Asp-CO-NH2” the “final LC-MS purity” value was 100%. For “Ac-NH-His-Glu-[Lys-Glu-Asp-Leu-Glu]-Tyr-Gln-CO-NH2”, the “final LC-MS purity” value was 100%. For “Ac-NH-His-Glu-[Asp-Glu-Asp-Leu-Lys]-Tyr-Gln-CO-NH2”, the “final LC-MS purity” value was 98%.

HELM strings list residues between dots; [ac] is acetyl, [am] amide, other brackets name non-standard units.
